Anti-infective test results gathered from many reports (values: NIAID ChemDB through PubChem).

Shared fields: tests on isolated targets; organism: HIV-1; protein: Integrase; method: strand transfer; endpoint: IC50

Two numbers with a dash give a range or band. An empty or dashed field is not shown. ICn: concentration for n% inhibition. Conditions beyond the fields shown may differ between rows.

compound,mutations,result
O=C(C1=NS(=O)(=O)c2ccc(Cl)cc2S1)c1ccc2ccccc2c1,INTG-C65S,35 µM
COc1ccc(-c2nc(SCc3ccc([N+](=O)[O-])cc3)[nH]c(=O)c2C#N)cc1,-,75 µM
O=C(NC1CC1)c1[nH]c(=O)c(O)c2c1CCN(Cc1ccc(F)cc1)C2=O,-,<1 µM
O=C1c2c(O)c3n(c2CCN1Cc1ccc(F)cc1)CCN(Cc1ccc(F)cc1)C3=O,-,<1 µM
N#Cc1c(-c2cccc([N+](=O)[O-])c2)nc(SCc2ccc([N+](=O)[O-])cc2)[nH]c1=O,-,100 µM
Cc1cc(O)cc2c1[nH]c1c(C)cc3c(c12)C(=O)N(CCN(C)C)C3=O,-,>100 µM
Oc1c(C(=S)NCc2ccc(F)cc2)occc1=S,-,7.3 µM
O=C(Nc1ccc2c(O)c(N=Nc3ccc(Br)cc3Br)c(S(=O)(=O)O)cc2c1)Nc1ccc2c(O)c(N=Nc3ccc(Br)cc3Br)c(S(=O)(=O)O)cc2c1,-,0.6 µM
CCCC(CCCCCCCc1cc(O)cc(O)c1C(=O)OC(CCC)CCCCCCCc1cc(O)cc(O)c1)OC(C)=O,-,31 µM
CCOC(=O)/C(O)=C(\C#N)c1cn(Cc2ccc(F)cc2)c2ccccc12,-,>100 µM
CC(C)NC(=O)c1[nH]c(=O)c(O)c2c1CCN(Cc1ccc(F)cc1)C2=O,-,<1 µM
O=[N+]([O-])c1ccc(CS(=O)(=O)c2nc3ccccc3s2)cc1,-,>1000 µM
O=C(NCc1ccc(F)cc1)c1occc(=S)c1O,-,11.5 µM
CN(C)C(=O)c1c2c(c(O)c(=O)n1C)C(=O)N(Cc1ccc(F)c(Cl)c1)CC2,-,<1 µM
N#Cc1c(-c2cccc([N+](=O)[O-])c2)nc(SCc2ccccc2)[nH]c1=O,-,87 µM
O=C(NCc1ccc(Br)cc1)c1c(O)c2ncccc2oc1=O,-,35.7 µM
Cc1cc2c(cc1Cl)SC(C(=O)c1ccc([N+](=O)[O-])cc1)=NS2(=O)=O,INTG-C65S,11 µM
O=C(Nc1ccc2c(O)c(N=Nc3c(F)c(F)c(C(=O)O)c(F)c3F)c(S(=O)(=O)O)cc2c1)Nc1ccc2c(O)c(N=Nc3c(F)c(F)c(C(=O)O)c(F)c3F)c(S(=O)(=O)O)cc2c1,-,0.33 µM
Brc1ccc(CSc2nc3ccccc3s2)cc1,-,>1000 µM
Cc1ccc(CNC(=O)/C=C(\O)C(=O)O)cc1,-,<70 µM
CCOC(=O)C(Cc1ccccc1)c1ccc(N2C(=O)C(c3ccc(C(=O)O)o3)=C(c3ccc(C(=O)O)o3)C2=O)cc1,-,9 µM
Cc1cn([C@H]2C[C@H](O)[C@@H](COP(=O)(O)O[C@H]3[C@H](n4cnc5c(N)ncnc54)CO[C@@H]3COP(=O)(O)O)O2)c(=O)[nH]c1=O,-,150 µM
CCN(CC)C(=O)c1c2c(c(O)c(=O)n1C)C(=O)N(Cc1ccc(F)c(Cl)c1)CC2,-,<1 µM
CN(CCc1ccc(F)cc1)C(=O)/C=C(\O)C(=O)O,-,<70 µM
Cc1cc2c(cc1Cl)SC(C(=O)c1ccc3ccccc3c1)=NS2(=O)=O,INTG-C65S,15 µM
CN(C)CCN1C(=O)c2ccc3c(c2C1=O)c1cc(O)ccc1n3C,-,>100 µM
O=S(=O)(Cc1ccc(Br)cc1)c1nc2ccccc2s1,-,>1000 µM
CC(=O)N(C)c1c2c(c(O)c(=O)n1C)C(=O)N(Cc1ccc(F)cc1)CC2,-,<1 µM
O=C(Nc1ccc2c(O)c(N=Nc3ccc(C(=O)O)cc3)c(S(=O)(=O)O)cc2c1)C(=O)Nc1ccc2c(O)c(N=Nc3ccc(C(=O)O)cc3)c(S(=O)(=O)O)cc2c1,-,1 µM
CCN(CC)CCCC(C)Nc1ccnc2c(OC)c(Cl)ccc12,-,>300 µM
CN(Cc1ccccc1OCc1ccc(F)cc1)C(=O)/C=C(\O)C(=O)O,-,<70 µM
CCN(CC)CCCC(C)Nc1ccnc2cc(Cl)ccc12,-,24.5 µM
[N-]=[N+]=NCc1ccc(C(=O)c2cccc(/C(O)=C/C(=O)C(=O)O)c2)cc1,-,33.7 µM
O=c1oc2cccnc2c(O)c1C(=S)NCc1ccccc1,-,>300 µM
Nc1ccn([C@@H]2O[C@H](COP(=O)(O)O)[C@@H](OP(=O)(O)OC[C@H]3OC[C@@H](n4cnc5c(N)ncnc54)[C@@H]3O)[C@H]2O)c(=O)n1,-,>300 µM
O=C(O)c1[nH]c(=O)c(O)c2c1CCN(Cc1ccc(F)cc1)C2=O,-,<1 µM
O=C1C(=O)N(Cc2cccc3cccnc23)c2ccccc21,-,700 µM
N#Cc1c(-c2ccc(Cl)cc2)nc(SCCc2ccccc2)[nH]c1=O,-,16 µM
O=S(=O)(Cc1cccc2cccnc12)c1nc2ccccc2s1,-,>1000 µM
N#Cc1c(-c2ccccc2)nc(SCc2ccccc2)[nH]c1=O,-,100 µM
CCOC(=O)/C=C/c1ccc2c(c1)c(=O)c(/C(O)=C/C(=O)C(=O)OCC)cn2Cc1ccc(F)cc1,-,>300 µM
Cc1cc(Cl)cc2c1S(=O)(=O)N=C(C(=O)c1ccc3ccccc3c1)S2,INTG-C65S,20 µM
N#Cc1c(-c2cccc(Cl)c2)nc(SCc2ccccc2)[nH]c1=O,-,17 µM
CN(c1nc(C(=O)NCc2ccc(F)cc2C(N)=O)c(O)c2ncccc12)S(C)(=O)=O,-,<0.5 µM
COC(=O)c1cc(-c2ccccc2)on1,-,>1000 µM
COc1ccc2c(c1)c1c3c(ccc1n2C)C(=O)N(CCN(C)C)C3=O,-,>100 µM
Nc1ccn([C@@H]2CC[C@H](COP(=O)(O)O)O2)c(=O)n1,-,45 µM
CN(CCCc1ccc(F)cc1)C(=O)/C=C(\O)C(=O)O,-,<70 µM
O=S(=O)(c1cccc2cnccc12)n1cncn1,-,>1000 µM
Cn1ccn2c(=O)c(O)c(-c3ncc(Cc4ccc(Cl)c(Cl)c4)s3)nc12,G140S/Q148H,0.1–1 µM
O=C(Nc1ccccc1)c1c(O)c2ncccc2oc1=O,-,>300 µM
N#Cc1c(-c2cccc(Cl)c2)nc(SCc2ccc([N+](=O)[O-])cc2)[nH]c1=O,-,100 µM
O=CCCc1ccc(C2=C(c3ccc(CCC=O)o3)C(=O)N(Cc3ccccc3)C2=O)o1,-,5.5 µM
COC1(O)C(=O)c2c(O)cc(C)c3c4c(c(O)c(c23)C1=O)C(C)(C)C(C)O4,-,19 µM
CCn1cc(-c2cc(C(=O)OC)no2)c2ccccc21,-,>1000 µM
O=C(O)CC(C(=O)O)c1ccc(N=Nc2c(S(=O)(=O)O)cc3cc(NC(=O)Nc4ccc5c(O)c(N=Nc6ccc(C(CC(=O)O)C(=O)O)cc6)c(S(=O)(=O)O)cc5c4)ccc3c2O)cc1,-,0.7 µM
CCN(CC)CCCC(C)Nc1ccnc2cc(C(F)(F)F)ccc12,-,>300 µM
O=c1oc2cccnc2c(O)c1C(=S)NCc1ccc(F)cc1,-,>300 µM
CC(C)NC(=O)c1cc(F)ccc1CNC(=O)c1nc(N2CCCCS2(=O)=O)c2cccnc2c1O,-,<0.5 µM
COC(=O)/C(O)=C/C(=O)/C=C(\O)c1ccccc1,-,80 µM
Cn1ccn2c(=O)c(O)c(-c3ncc(Cc4ccc(Cl)cc4)s3)nc12,E92Q/N155H,0.1–1 µM
CN(C)CCCNC(=O)c1ccc2nc(-c3ccc4nc(-c5ccc(OCCOCCOCCOc6ccc(-c7nc8ccc(-c9nc%10ccc(C(=O)NCCCN(C)C)cc%10[nH]9)cc8[nH]7)cc6)cc5)[nH]c4c3)[nH]c2c1,-,16 µM
CC(=O)OC[C@H]1CCC(=O)N1c1cc(F)ccc1CNC(=O)c1nc2n(c(=O)c1O)CCOC2(C)C,-,0.02–0.1 µM
CC(=O)OC1=C(C(=O)[C@@H]2C3C(C=C(C)[C@H]2C[C@H]2OC4(CC[C@H](C)[C@@H](c5cc(OC(C)=O)cc(OC(C)=O)c5)O4)[C@@H](C)C[C@@H]2C)CC[C@@H](OC(C)=O)[C@@H]3C)C(=O)NC1[n+]1ccccc1,-,30 µM
COc1ccc(/C=C2\C(=O)N(c3cccc(Br)c3)N=C2C)cc1OCc1ccc(F)cc1,-,3 µM
CN(Cc1ccc(F)c(Br)c1)C(=O)/C=C(\O)C(=O)O,-,<70 µM
Cn1ccn2c(=O)c(O)c(-c3ncc(Cc4ccc(F)c(Cl)c4)s3)nc12,E92Q/N155H,0.1–1 µM
N#Cc1c(-c2ccc(Cl)cc2)nc(SCc2ccc([N+](=O)[O-])cc2)[nH]c1=O,-,100 µM
CCCNS(=O)(=O)c1cccc2cnccc12,-,900 µM
CN(C)C(=O)c1cc(F)ccc1CNC(=O)c1nc(N2CCCCS2(=O)=O)c2cccnc2c1O,-,<0.5 µM
O=C(O[C@@H]1O[C@@H]2COC(=O)c3cc(O)c(O)c(O)c3-c3c(cc(O)c(O)c3O)C(=O)O[C@H]([C@H]1O)[C@@H]2O)c1cc(O)c(O)c(O)c1,-,0.21 µg/mL
O=C(O)CCc1ccc(N=Nc2c(S(=O)(=O)O)cc3cc(NC(=O)Nc4ccc5c(O)c(N=Nc6ccc(CCC(=O)O)cc6)c(S(=O)(=O)O)cc5c4)ccc3c2O)cc1,-,1 µM
CN(C)CCN1C(=O)c2ccc3[nH]c4cc(O)c(O)cc4c3c2C1=O,-,>100 µM
O=C(C1=NS(=O)(=O)c2ccc(Cl)cc2S1)c1ccc(Cl)c(Cl)c1,-,19 µM
Cn1ccn2c(=O)c(O)c(C(O)NCc3ccc(F)cc3)nc12,Wild type,0.1–1 µM
COc1ccc(/C=C2\C(=O)N(c3ccccc3)NC2C(F)(F)F)cc1OCc1ccc(F)cc1,-,>100 µM
Cn1cc(-c2cc(C(=O)O)no2)c2ccccc21,-,475 µM
CCS(=O)(=O)N(C)c1nc(C(=O)NCc2ccc(F)cc2C(=O)NC)c(O)c2ncccc12,-,<0.5 µM
O=C(O)C(=O)c1c(O)n(-c2ccccc2)c2ccccc12,-,660 µM
C=c1/c(=C\c2ccc(OC)c(OCc3ccc(F)cc3)c2)c(CCOC(C)=O)nn1-c1ccccc1,-,100 µM

Repeating the final 6 entries:

Cn1ccn2c(=O)c(O)c(C(O)NCc3ccc(F)cc3)nc12 ; mutations: Wild type ; result: 0.1–1 µM
COc1ccc(/C=C2\C(=O)N(c3ccccc3)NC2C(F)(F)F)cc1OCc1ccc(F)cc1 ; result: >100 µM
Cn1cc(-c2cc(C(=O)O)no2)c2ccccc21 ; result: 475 µM
CCS(=O)(=O)N(C)c1nc(C(=O)NCc2ccc(F)cc2C(=O)NC)c(O)c2ncccc12 ; result: <0.5 µM
O=C(O)C(=O)c1c(O)n(-c2ccccc2)c2ccccc12 ; result: 660 µM
C=c1/c(=C\c2ccc(OC)c(OCc3ccc(F)cc3)c2)c(CCOC(C)=O)nn1-c1ccccc1 ; result: 100 µM